Measured data: PubChem BioAssay AID504761 (Drosophila RNAi Screening Center, 2011)
Test: 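Fly genes whose silencing reduces dengue virus type 2 infection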 (primary screen). Cells: D.Mel-2 cells from Drosophila. Knock-down reagent: long dsRNA against Drosophila genes. Conditions: infection with dengue virus type 2; dose and infection time not stated. Measurement: 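Cells stained for dengue envelope protein and imaged; percent of infected cells per well on duplicate plates, ranked by infection, with stained nuclei counted for cell number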. Scale: infection score: higher = more virus-infected cells. Active means: 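Low infection ranks in the two replicates (chance level up to 0.065) followed by a retest with a 1.5-fold or larger significant decrease, p below 0.05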. Calls: active = confirmed: knock-down lowers infection; inactive = not picked or not confirmed.
The screen tested about 22,000 reagents; this is a random part of those that have a named target and a result. In the full data, 116 (0.52%) got an active call. 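Calls depend on retest data that are not deposited; infection was ranked per plate without normalising between plates; the unit of the infection score is not given.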 Entries without a mark were called inactive. Not all columns of the deposit are shown. No sequences are given here. The record does not give: the amount of reagent, the time to read-out.

gene knocked down	dsRNA	infection score, replicate 1
mei-P22	DRSC11366	3.82
CG10433	DRSC04068	5.01
CG10433	DRSC26255	10.5
CG2100	DRSC12303	5.04
Vps51	DRSC06519	9.56
CG5382	DRSC15786	8.79
Nup358	DRSC14410	3.1
Nup358	DRSC29772	13.8
CG32061	DRSC22605	9.77
Plc21C	DRSC00773	3.2
Cp19	DRSC11121	6.61
Cp19	DRSC28639	12.1

Reformatted: entries from further up.
CG2100 [DRSC12303]: infection score, replicate 1 = 5.04
Vps51 [DRSC06519]: infection score, replicate 1 = 9.56
CG5382 [DRSC15786]: infection score, replicate 1 = 8.79

Additional records follow:
gene knocked down	dsRNA	infection score, replicate 1
mthl8	DRSC08211	11.3
mthl8	DRSC08311	0.6
ATPsynO	DRSC16780	22.1
ATPsynO	DRSC26306	15.3
Cyp4ac2	DRSC03303	6.35
CG17075	DRSC00483	3
CG17075	DRSC26505	1.12
Toll-6	DRSC11304	0.81
CG17666	DRSC10276	0.73
CG17666	DRSC26761	13.8
Osi13	DRSC12281	2.43
